Compound potency records, mixed from different reports. Data source: NIAID ChemDB in PubChem.

Rows are shuffled and stem from different studies.

structure	kind	strain	protein	cell line	dose	method	species	measure	value
Fc1ccccc1N1CCN(c2cncc(-c3ccc(C(F)(F)F)cc3)n2)CC1	target	-	UL97 kinase	-	-	-	Cytomegalovirus	IC50	<10 µM
COC(=O)[C@H](Cc1cnc[nH]1)NC(=O)c1cnn2c(C3CCCCC3)c(-c3ccc(F)cc3)cnc12	target	-	RNA-dependent RNA polymerase	-	-	-	Hepatitis C virus	IC50	<1 µM
COc1cc(C)ccc1OCCOc1ccccc1F	toxicity	-	-	RAJI	-	-	-	CC50	>20 µM
Nc1cccc(S(=O)(=O)O)c1	culture	TYPE 3	-	Human embryonic lung cells	5 µg/mL	cytopathic effect	Adenovirus	inhibition	0%
Clc1ccc(-c2cncc(N3CCN(c4ccccn4)CC3)n2)cc1	target	-	UL97 kinase	-	-	-	Cytomegalovirus	IC50	<100 µM
COc1cc(-c2ccc(N=Nc3ccc4c(S(=O)(=O)O)cc(S(=O)(=O)O)c(N)c4c3O)c(OC)c2)ccc1N=Nc1ccc2c(S(=O)(=O)O)cc(S(=O)(=O)O)c(N)c2c1O	culture	TYPE 3	-	Human amnion AV3 cells	50 µg/mL	cytopathic effect	Adenovirus	inhibition	0%
CN(C)c1cccc(CCNC(=O)Nc2cccc(F)c2)n1	toxicity	-	-	PBMC	-	-	-	CC50	50 µM
CCOC(=O)/C=C/[C@H](C[C@@H]1CCNC1=O)NC(=O)[C@@H](CC(=O)[C@@H](NC(=O)c1cc(C)on1)C(C)C)Cc1ccc(F)cc1	culture	Isolate 37	-	OHIO HELA-I	-	cytopathic effect / visual reading	Rhinovirus	EC50	0.02 µg/mL
CCOC(=O)CCCCCOc1cccc(CN(C(=O)c2ccc(-c3ccc(C(C)=O)s3)cc2)C(C)C)c1	toxicity	-	-	BJ	-	-	-	CC50	>20 µM
NCCCC[C@H](NC(=O)c1cnn2c(C3CCCCC3)c(-c3ccc(F)cc3)cnc12)C(=O)O	target	-	RNA-dependent RNA polymerase	-	-	-	Hepatitis C virus	IC50	1–10 µM
O=c1c2[nH]cnc2ncn1CCNCCP(=O)(O)O	host protein	-	Hypoxanthine-guanine phosphoribosyltransferase	-	-	absorbance	Human	Ki	40 µM
CCOC(=O)CCCCCOc1cccc(CN(C(=O)c2ccc(-c3cccc(OCC(C)C)c3)cc2)C(C)C)c1	toxicity	-	-	BJ	-	-	-	CC50	>20 µM
O=C(Cn1c(-c2nccs2)nc2ccccc21)Nc1ccc(Cl)c(Cl)c1	host protein	-	IMPDH2	-	-	fluorescence / absorbance	Human	IC50	≥8 µM
CC(C)(C)C(=O)Nc1cccc(CCNC(=O)Nc2cccc(F)c2)n1	toxicity	-	-	PBMC	-	-	-	CC50	21 µM
CCOC(=O)c1cnc(NCCCCNc2ccnc3cc(Cl)ccc23)nc1C	culture	ATCC 24065	-	-	-	-	Cryptococcus gattii	MIC99	8 µg/mL
CCOc1cccc(-c2ccc(C(=O)N(Cc3cccc(OCCCCCC(=O)OC(=O)O)c3)C(C)C)cc2)c1	toxicity	-	-	HEK 293	-	-	-	CC50	>20 µM
Nc1nc2c(ncn2CCOCCP(=O)(O)O)c(=O)[nH]1	host protein	-	Hypoxanthine-guanine phosphoribosyltransferase	-	-	absorbance	Human	Ki	1 µM
Fc1ccc(N2CCN(c3cncc(-c4ccoc4)n3)CC2)c(F)c1	target	-	UL97 kinase	-	-	-	Cytomegalovirus	IC50	<10 µM
COc1ccc(C2=C3c4cc(OC)c(OC)cc4C=CN3C3C(=O)Oc4cc(OS(=O)(=O)O)c(OC)cc4C23)cc1O	host protein	-	Topoisomerase	-	-	-	Molluscum contagiosum virus	IC50	>170 µM
Cc1cc(Cl)ncc1NC(=O)NCCc1ccc2c(n1)NCCC2	toxicity	-	-	PBMC	-	-	-	CC50	50 µM
COc1cccc(CC2CCc3nc(N)nc(N)c3C2)c1	target	TYPE 1	Dihydrofolate reductase	-	-	-	Cryptosporidium parvum	IC50	1.2 µM
CCOC(=O)CCCCCOc1cccc(CN(C(=O)c2ccc(-c3ccco3)cc2)C(C)C)c1	toxicity	-	-	RAJI	-	-	-	CC50	>20 µM
Oc1ccccc1N=Cc1ccc(O)c(O)c1O	culture	ATCC 24067	-	-	-	-	Cryptococcus neoformans	MIC99	11.3 µg/mL
OCc1cccc(-c2cncc(N3CCN(CCN4CCCC4)CC3)n2)c1	target	-	UL97 kinase	-	-	-	Cytomegalovirus	IC50	<100 µM
COc1cc(N(C)Cc2c(Br)sc3nc(N)nc(N)c23)cc(OC)c1OC	target	TYPE 1	Dihydrofolate reductase	-	-	-	Cryptosporidium parvum	IC50	>10 µM
CCOC(=O)CCCCCOc1cccc(CN(C(=O)c2ccc(-c3ccc4c(c3)OCCO4)cc2)C(C)C)c1	toxicity	-	-	HEK 293	-	-	-	CC50	>20 µM
Fc1ccc(N2CCCCC2)c(NC(=S)c2ccncc2)c1	host protein	-	Lck	-	10 µM	kinase activity	-	inhibition	18%
O=C(Cc1ccc(Cl)c(Cl)c1)NCCc1ccc2c(n1)NCCC2	toxicity	-	-	PBMC	-	-	-	CC50	35 µM
O=C(O)c1cc2nc(-c3ccc(Cl)cc3Cl)cc(-c3cccc(F)c3)n2n1	target	-	RNA-dependent RNA polymerase	-	-	-	Hepatitis C virus	IC50	>10 µM
COc1c(-c2ccc3cc(NS(C)(=O)=O)ccc3c2)cc(-n2ccc(=O)[nH]c2=O)cc1C(C)(C)C	host protein	-	Human polymerase gamma	-	-	-	-	IC50	>100 µM
C=CCc1ccc(O)c(OC)c1	culture	2427	-	-	-	turbidity	Candida albicans	MIC90	500 µg/mL
CCOC(=O)c1c(C)nc(NCCCCNc2ccnc3cc(Cl)ccc23)nc1-c1ccccc1	culture	ATCC 32608	-	-	-	-	Cryptococcus gattii	MIC99	16 µg/mL
COc1ccc(CO)c(CNc2ccc3nc(N)nc(N)c3c2Cl)c1	target	TYPE 2	Dihydrofolate reductase	-	-	-	Cryptosporidium parvum	IC50	0.023 µM
Cc1[nH]c2ccccc2c(=O)c1-c1ccc(Oc2ccc(OC(F)(F)F)cc2)cc1	host protein	-	HFF	-	-	absorbance	-	IC50	0.818 µM
CCOC(=O)CCCCCOc1cccc(CN(C(=O)c2ccc(-c3ccoc3)cc2)C(C)C)c1	toxicity	-	-	BJ	-	-	-	CC50	>20 µM
Fc1ccc(-c2cncc(N3CCN(c4ccc(C(F)(F)F)cc4)CC3)n2)cc1	target	-	UL97 kinase	-	-	-	Cytomegalovirus	IC50	<100 µM
COc1cc2c(cc1OC)C1=C(c3ccc(OC)c(OS(=O)(=O)O)c3)C3c4cc(OC)c(OS(=O)(=O)O)cc4OC(=O)C3N1C=C2	host protein	-	Topoisomerase	-	-	-	Molluscum contagiosum virus	IC50	70 µM
Nc1ccccc1S(=O)(=O)O	culture	-	-	Human amnion AV3 cells	50 µg/mL	cytopathic effect	Herpes simplex virus	inhibition	10%
CCc1sc2nc(N)nc(N)c2c1-c1ccc(Cl)cc1	target	TYPE 2	Dihydrofolate reductase	-	-	-	Cryptosporidium parvum	IC50	>10 µM
O=S(=O)(O)c1ccc2cc(O)c(S(=O)(=O)O)cc2c1	culture	TYPE 3	-	Human amnion AV3 cells	10 µg/mL	cytopathic effect	Adenovirus	inhibition	0%
O=C(NCCc1ccc2c(n1)NCCC2)Nc1cccc2c1OCC2	toxicity	-	-	PBMC	-	-	-	CC50	4.44 µM
O=C1C(c2[nH]c3ccc(S(=O)(=O)O)cc3c2O)=Nc2ccc(S(=O)(=O)O)cc21	culture	TYPE 3	-	Human amnion AV3 cells	5 µg/mL	cytopathic effect	Adenovirus	inhibition	0%
CC(=O)N[C@H]1[C@H]([C@H](O)[C@H](O)CO)OC(C(=O)O)=C[C@@H]1N=C(N)N	culture	B/LEE/40	-	MDCK	-	-	Influenza B virus	EC50	0.6 µM
COc1cc(NCc2csc3nc(N)nc(N)c23)cc(OC)c1OC	target	TYPE 1	Dihydrofolate reductase	-	-	-	Cryptosporidium parvum	IC50	>10 µM
COc1ccc(N2CCN(c3cncc(-c4ccccc4CO)n3)CC2)cc1OC	target	-	UL97 kinase	-	10 µM	-	Cytomegalovirus	inhibition	>15%
c1ccc(COc2ccc(-c3cnc4c(-c5nn[nH]n5)cnn4c3C3CC3)cc2)cc1	target	-	RNA-dependent RNA polymerase	-	-	-	Hepatitis C virus	IC50	>10 µM
Cc1ccnc2c1NC(=O)c1cccnc1N2C1CC1	host protein	-	DNA polymerase alpha	-	-	-	Human	IC50	>24 µM
O=c1cc(Cc2ccc(CCc3ccc(F)cc3F)cc2)c2cccnc2n1O	toxicity	-	-	HeLa	-	-	-	CC50	0.26 µM
CCCCc1ccc(Cc2nc3nc(N)nc(N)c3nc2Cc2cccc(CCCC)c2)cc1	target	TYPE 2	Dihydrofolate reductase	-	-	-	Cryptosporidium parvum	IC50	>10 µM
O=C(Cn1c(-c2nccs2)nc2ccccc21)Nc1ccc2ccccc2c1	host protein	-	IMPDH2	-	5 µM	fluorescence / absorbance	Human	inhibition	≤10%
[N-]=[N+]=Nc1ccc(C(=O)CSc2nc3c(ncn3[C@H]3C[C@H](O)[C@@H](COP(=O)(O)OP(=O)(O)OP(=O)(O)O)O3)c3nccn23)cc1	host protein	-	DNA polymerase I	-	-	radiometric	Escherichia coli	Ki	78 µM
CCOC(=O)c1cc2nc(-c3ccccc3)cc(-c3ccc(Cl)cc3)n2n1	target	-	RNA-dependent RNA polymerase	-	-	-	Hepatitis C virus	IC50	>10 µM
Cc1sccc1NC(=O)NCCc1ccc2c(n1)NCCC2	toxicity	-	-	PBMC	-	-	-	CC50	50 µM
O=C(Cn1c(-c2cscn2)nc2ccccc21)Nc1ccc2ccccc2c1	host protein	-	IMPDH2	-	5 µM	fluorescence / absorbance	Human	inhibition	≤10%
Oc1ccccc1N=Cc1ccc(F)cc1	culture	F-10	-	-	-	broth dilution	Cryptococcus neoformans	MIC	8 µg/mL
CCOC(=O)c1c(O)c2cc(C(=O)NC3CCCCC3)cnc2n(O)c1=O	toxicity	-	-	HeLa	-	-	-	CC50	<100 µM
COC(=O)c1cc2ncc(-c3ccc(OCc4ccccc4)cc3)c(-c3ccccc3)n2n1	target	-	RNA-dependent RNA polymerase	-	-	-	Hepatitis C virus	IC50	>10 µM
NCCS(=O)(=O)O	culture	-	-	Human amnion AV3 cells	5 µg/mL	cytopathic effect	Herpes simplex virus	inhibition	0%
CCOC(=O)c1c(C)nc(NCCCCNc2ccnc3cc(Cl)ccc23)nc1-c1ccc(F)cc1	culture	1913 ER	-	-	-	-	Cryptococcus gattii	MIC99	8 µg/mL
CCOC(=O)CCCCCOc1cccc(CN(C(=O)c2ccc(-c3cccc(Br)c3)cc2)C(C)C)c1	toxicity	-	-	HEK 293	-	-	-	CC50	>20 µM
CC(C)(O/N=C(\C(=O)NCC(O)O)c1csc(N)n1)C(=O)O	host protein	-	DNA polymerase beta	-	-	-	Bos primigenius	IC50	0.01 µM
Nc1cccc(CCNC(=O)Nc2cccc(F)c2)n1	toxicity	-	-	PBMC	-	-	-	CC50	50 µM
O=c1cc(NCc2ccccc2F)c2cccnc2n1O	toxicity	-	-	HeLa	-	-	-	CC50	<100 µM
COc1ccc(NC(=O)NCCc2ccc3c(n2)NCCC3)c(C)c1	toxicity	-	-	PBMC	-	-	-	CC50	13 µM
CCO/N=C/c1ccc(OCCC2CCN(c3ccc(Cl)nn3)CC2)cc1	culture	CH82 (ICAM-1 receptor group 56)	-	KB	-	neutral red	Rhinovirus	EC50	0.004 µM
Oc1ccccc1N=Cc1ccc2c(c1)OCO2	culture	L 27/01	-	-	-	-	Cryptococcus gattii	MIC99	45.3 µg/mL
O=C(O)c1cc2nc(-c3ccc(Cl)cc3)cc(N3CCc4ccccc4C3)n2n1	target	-	RNA-dependent RNA polymerase	-	-	-	Hepatitis C virus	IC50	>10 µM
CN(Cc1ccc2nc(N)nc(N)c2n1)c1ccc(C(=O)NC2CCCCC2)cc1	target	TYPE 2	Dihydrofolate reductase	-	-	-	Cryptosporidium parvum	IC50	4.7 µM
c1csc(COc2ccc(-c3cnc4c(-c5nn[nH]n5)cnn4c3C3CCCCC3)cc2)c1	target	-	RNA-dependent RNA polymerase	-	-	-	Hepatitis C virus	IC50	1–10 µM
Nc1ccc(S(=O)(=O)O)cc1	culture	-	-	Human amnion AV3 cells	50 µg/mL	cytopathic effect	Herpes simplex virus	inhibition	10%

ECn is the concentration giving n% inhibition of infection, replication or growth. Two numbers with a dash give a range or band. CCn: concentration that lowers growth or viability of the cells by n%. MIC50, MIC90 and the like: level of inhibition, or share of isolates inhibited. ICn is the concentration giving n% inhibition. Blank or dashed fields: not listed here. Percent inhibition refers to the dose given; in toxicity tests it is the harm to the cells.